Data on one compound can be found in ChEMBL document CHEMBL4725263, “Discovery of potential dual-target prodrugs of HIV-1 reverse transcriptase and nucleocapsid protein 7” (Bioorg Med Chem Lett, 2020).

Molecules are shown by their SMILES.

The subject of this assay is Human immunodeficiency virus 1. In words: Fold resistance, ratio of EC50 for inhibition of reverse transcriptase K103N/Y181C double mutant/nucleocapsid protein 7 in HIV1 RES056 infected in human MT4 cells assessed as protection against virus-induced cytopathic effect incubated for 5 days by MTT assay to EC50 for reverse transcriptase/nucleocapsid protein 7 in wild type HIV1 3B infected in human MT4 cells assessed as protection against virus-induced cytopathic effect incubated for 5 days by MTT assay. The assay is classed as cell-based. Conditions: time 5.0 day. In short, it runs like this: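 MT-4 cells infected with HIV-1 IIIB (wild type) or RES056 (K103N/Y181C RT double mutant); 5-day incubation; viability by MTT. EC50 is the concentration giving 50% protection against virus-induced cytotoxicity. CC50 is the concentration cutting viability of mock-infected cultures by 50%. SI is CC50/EC50. Fold resistance is EC50 mutant/EC50 wild type.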
For orientation: Protection from cytopathic effect is a common read-out in antiviral testing.

On to `Cc1cn([C@H]2C[C@H](N=[N+]=[N-])[C@@H](CO)O2)c(=O)[nH]c1=O` [ZIDOVUDINE], for which the Ratio EC50 was 109.
